Test system: A549 cells
Assay: Mammalian cell toxicity (MTT assay) and selectivity index
Type: cell-based, Human
Conditions: for C. duobushaemulonii (SI) / C. haemulonii (SI) / C. haemulonii var. vulnera (SI): CC50/GM-MIC; for Overall mean (SI): mean of the SI values against the three species, ratio CC50 / MIC
Description: Three clinical isolates of each species that form the C. haemulonii complex were used in this study: C. haemulonii (LIPCh4 from finger nail, LIPCh7 from toe nail, and LIPCh12 from blood), C. duobushaemulonii (LIPCh1 from finger nail, LIPCh6 from toe nail, and LIPCh8 from blood) and C. haemulonii var. vulnera (LIPCh5 from toe nail, LIPCh9 from urine, and LIPCh11 from blood) (Ramos et al., [2015]). The fungal isolates were identified by the automatized system VITEK® 2 and then characterized by ITS1-5.8S-ITS2 gene sequencing (Ramos et al., [2015]). Fungal cells were cultured in Sabouraud-dextrose medium under constant agitation (130 rpm) for 48 h at 37°C. Human lung adenocarcinoma A549 cells were maintained in culture flasks containing DMEM medium supplemented with 10% fetal bovine serum at 37°C in an atmosphere of 5% CO2.
The cytotoxicity was evaluated using the MTT [3-(4,5-dimethylthiazol-2-yl)-2,5-diphenyl tetrazolium bromide] (Sigma-Aldrich) assay (Mosmann, [1983]). A549 cells (10^4) were seeded into tissue culture plates (TPP, Switzerland) and cultured for 24 h at 37°C in a 5% CO2 in order to obtain cellular confluence. The wells were then washed twice with DMEM to remove non-adherent cells and the test compounds were added (in concentrations ranging from 0.0313 to 512 μg/mL) to plates containing DMEM, followed by a 48 h incubation period under the same conditions mentioned above. The cellular viability was evaluated by adding MTT to each well and incubating the plates in the dark for 3 h, allowing the viable cells containing active mitochondrial dehydrogenase enzymes to metabolize MTT-tetrazolium salt into purple formazan. The formazan crystals were then dissolved in DMSO (100 μL) and the absorbance (450 nm) measured using a Thermomax Molecular Device microplate reader. The concentration capable of reducing cellular viability by 50% (CC50) was calculated, and the selectivity index (SI) determined using the following equation: A549 CC50/C. haemulonii complex GM-MIC.

Row | Compound | C. duobushaemulonii (SI) | C. haemulonii (SI) | C. haemulonii var. vulnera (SI) | Overall mean (SI)
1 | [Cl][Cu][Cl] [CuCl2, reference compound] | >3.87 | >3.87 | >3.87 | >3.87
2 | O.O.O=C([O-])c1ccccc1C(=O)[O-].[Cu+2].c1cnc2c(c1)ccc1cccnc12 [compound 1, [Cu(ph)(phen)(H2O)2]] | <0.02 | <0.02 | <0.02 | <0.02
3 | CCO.CCO.O.O.O.O=C([O-])c1ccccc1C(=O)[O-].[Cu+2].c1cnc2c(c1)ccc1cccnc12.c1cnc2c(c1)ccc1cccnc12 [compound 2, [Cu(ph)(phen)2].3H2O.2EtOH] | <0.06 | <0.06 | <0.06 | <0.06
4 | CCO.CCO.O=C([O-])c1ccc(C(=O)[O-])cc1.O=C([O-])c1ccc(C(=O)[O-])cc1.[Cu+2].[Cu+2].c1cnc2c(c1)ccc1cccnc12.c1cnc2c(c1)ccc1cccnc12.c1cnc2c(c1)ccc1cccnc12.c1cnc2c(c1)ccc1cccnc12 [compound 4, [{Cu(phen)2}2(terph)](terph).13.5H2O.2EtOH] | <0.12 | <0.12 | 0.12 | 
5 | CCO.O=C([O-])CCCCCCC(=O)[O-].[Cu+2].[Cu+2].[O-][Cl+3]([O-])([O-])[O-].[O-][Cl+3]([O-])([O-])[O-].c1cnc2c(c1)ccc1cccnc12.c1cnc2c(c1)ccc1cccnc12.c1cnc2c(c1)ccc1cccnc12.c1cnc2c(c1)ccc1cccnc12 [compound 5, [Cu2(oda)(phen)4](ClO4)2.2.76H2O.EtOH] | 0.12 | 0.10 | 0.10 | 0.11
6 | O.O.O.O.O=C1C(=O)c2cccnc2-c2ncccc21.O=C1C(=O)c2cccnc2-c2ncccc21.O=C1C(=O)c2cccnc2-c2ncccc21.[Cu+2].[O-][Cl+3]([O-])([O-])[O-].[O-][Cl+3]([O-])([O-])[O-] [compound 6, [Cu(phendione)3](ClO4)2.4H2O] | 0.09 | 0.04 | 0.11 | 0.08
7 | O.O.O=C([O-])c1ccccc1C(=O)[O-].[Mn+2].c1cnc2c(c1)ccc1cccnc12 [compound 8, [Mn(ph)(phen)(H2O)2]] | 46.53 | 46.53 | 58.63 | 50.56
8 | O.O.O.O.O.O=C([O-])c1ccccc1C(=O)[O-].[Mn+2].c1cnc2c(c1)ccc1cccnc12.c1cnc2c(c1)ccc1cccnc12 [compound 9, [Mn(ph)(phen)2(H2O)].4H2O] | 129.67 | 129.67 | 129.67 | 129.67
9 | O.O.O.O.O.O=C([O-])c1ccc(C(=O)[O-])cc1.[Mn+2].c1cnc2c(c1)ccc1cccnc12.c1cnc2c(c1)ccc1cccnc12 [compound 12, [Mn(tereph)(phen)2].5H2O] | 62.99 | 62.99 | 62.99 | 62.99
10 | O.O.O.O.O.O.O=C([O-])CCCCCCC(=O)[O-].O=C([O-])CCCCCCC(=O)[O-].O=C([O-])CCCCCCC(=O)[O-].O=C([O-])CCCCCCC(=O)[O-].[Mn+2].[Mn+2].[Mn+2].[Mn+2].c1cnc2c(c1)ccc1cccnc12.c1cnc2c(c1)ccc1cccnc12.c1cnc2c(c1)ccc1cccnc12.c1cnc2c(c1)ccc1cccnc12.c1cnc2c(c1)ccc1cccnc12.c1cnc2c(c1)ccc1cccnc12.c1cnc2c(c1)ccc1cccnc12.c1cnc2c(c1)ccc1cccnc12 [compound 13, [Mn2(oda)(phen)4(H2O)2][Mn2(oda)(phen)4(oda)2].4H2O] | >203.19 | >256 | >256 | >236.40
11 | O=C1C(=O)c2cccnc2-c2ncccc21.O=C1C(=O)c2cccnc2-c2ncccc21.[Ag+].[O-][Cl+3]([O-])([O-])[O-] [compound 15, [Ag(phendione)2]ClO4] | 1.88 | 3.76 | 2.98 | 2.87
12 | CCO.O=C([O-])COCCOCCOCC(=O)[O-].[Ag+].[Ag+].c1cnc2c(c1)ccc1cccnc12.c1cnc2c(c1)ccc1cccnc12.c1cnc2c(c1)ccc1cccnc12.c1cnc2c(c1)ccc1cccnc12 [compound 16, [Ag2(3,6,9-tdda)(phen)4].EtOH] | 1.75 | 2.21 | 2.78 | 2.25
13 | [Ag+].[O-][Cl+3]([O-])([O-])[O-].c1cnc2c(c1)ccc1cccnc12.c1cnc2c(c1)ccc1cccnc12 [compound 17, [Ag(phen)2]ClO4] | 1.30 | 2.07 | 3.29 | 2.22
14 | O.O.O.O=C([O-])CCCCCCCCCC(=O)[O-].[Ag+].[Ag+].c1cnc2c(c1)ccc1cccnc12.c1cnc2c(c1)ccc1cccnc12.c1cnc2c(c1)ccc1cccnc12 [compound 18, [Ag2(phen)3(udda)].3H2O] | 27.26 | 86.55 | 54.52 | 56.11
15 | c1cnc2c(c1)ccc1cccnc12 [phen, 1,10-phenanthroline] | 4.30 | 4.30 | 5.42 | 4.67
16 | O=C1C(=O)c2cccnc2-c2ncccc21 [phendione, 1,10-phenanthroline-5,6-dione, reference compound] | 0.80 | 1.01 | 1.01 | 0.94
17 | {[Cu(3,6,9-tdda)(phen)2].3H2O.EtOH}n [compound 7] | 0.53 | 0.33 | 0.42 | 0.43
18 | {[Mn(3,6,9-tdda)(phen)2].3H2O.EtOH}n [compound 14] | 82.42 | 130.84 | 130.84 | 114.70

Reference: PMC5504357, “Antifungal Potential of Copper(II), Manganese(II) and Silver(I) 1,10-Phenanthroline Chelates Against Multidrug-Resistant Fungal Species Forming the Candida haemulonii Complex: Impact on the Planktonic and Biofilm Lifestyles” (Frontiers in Microbiology, 2017)
